The text below walks through data of PMC10897926 (Journal of Natural Products, 2024).

One series deals with HepG2 cells. Put plainly: HepG2 cytotoxicity. The note with it: for HepG2 Tox pCC50: -log of CC50 in [M], mean ± SD of independent experiments; for HepG2 Tox pCC50 / CC50: 72 h; for CC50: read-out: HepG2 Tox CC50, geometric mean of three independent experiments.
The test system of series [1] is primary human hepatocytes. To be noted: for PHH Tox pCC50: -log of CC50 in [M], mean ± SD; for CC50: read-out: PHH Tox CC50, host primary human hepatocytes of the P. vivax liver stage assay, two independent experiments.

As to `CC1=C[C@H]2O[C@@H]3C[C@@H](O)[C@](C)([C@@]2(CO)CC1)[C@@]31CO1`, in the series on HepG2 cells, the “HepG2 Tox pCC50” value is recorded as 5.00 ± 0.00 and the CC50 was over 10 µM. In series [1], the “PHH Tox pCC50” value is 5.00 ± 0.00 and the half-maximal cytotoxic concentration (CC50) was over 10 µM.
For verrucarin A, in the series on HepG2 cells, the “HepG2 Tox pCC50” value came to 8.45 ± 0.18 and the CC50 worked out at 0.00355 µM. Also, the “cytotoxicity (in words)” value in the series on HepG2 cells (HepG2) is given as “cytotoxic”. Also, in series [1], the “PHH Tox pCC50” value was 6.50 ± 0.05 and the 50% cytotoxic concentration (CC50) worked out at 0.316 µM.

What is called CC50 is the concentration that lowers cell viability or growth by half.
